“And” between values parts separate entries of the source, which are not always exact repeats. Equal values may be shown once. Where a name gives a salt, the structure may show the parent alone.
Tested on: HepG2 cell line
Assay: Cytotoxicity in HepG2 cells (CellTiter-Glo)
Format: cell-based, human
Conditions: ratio CC50 HepG2 / EC50 L. major EVC
Method: To determine compound toxicity we used the HepG2 cell line (human hepatocellular carcinoma, ATCC HB-8065) as a widely used cell-based assay. The cells were maintained in MEM (Gibco) supplemented with 5% heat-inactivated FBS, 1 mM Sodium pyruvate (Gibco) and 1X MEM amino acids solution (Sigma). Briefly, cells were added to white-bottomed 96-well plates containing 100 μL of serial 2-fold dilutions of the H1RAs. After 24 hours of culture at 37 °C, the percentage of viable cells was determined by ATP quantification using the CellTiter-Glo luminescent Cell Viability Assay (Promega) according to the manufacturer’s instructions. […] At least three different assays were carried out to determine the IVTI of each compound, which was calculated as the ratio between the CC50 obtained in the HepG2 cell line and the EC50 determined in the L. major EVC [21]. To evaluate the cytotoxicity of AZ and FX in peritoneal macrophages, adherent cells obtained from peritoneal lavage of naïve mice (10,000/well) were exposed during 24 hours at 37°C to serial drug concentrations (0.09 μM—200 μM). Cell viability was determined by CellTiter-Glo (Promega).

Going from C[C@@H]1[C@H](O)[C@@H](C)/C=C/C=C/C=C/C=C/C=C/C=C/C=C/[C@H](O[C@@H]2O[C@H](C)[C@@H](O)[C@H](N)[C@@H]2O)C[C@@H]2O[C@](O)(C[C@@H](O)C[C@@H](O)[C@H](O)CC[C@@H](O)C[C@@H](O)CC(=O)O[C@H]1C)C[C@H](O)[C@H]2C(=O)O [Amphotericin B] to CN1CCCC(n2nc(Cc3ccc(Cl)cc3)c3ccccc3c2=O)CC1 (stereo not shown) [Azelastine], the “IVTI (in vitro therapeutic index)” value rises from 33 to 942.

First: CN(C)CC[C@@H](c1ccc(Cl)cc1)c1ccccn1 [Dexchlorpheniramine maleate]
Second: Cc1ccc(/C(=C\CN2CCCC2)c2ccccn2)cc1 [Triprolidine]
The “IVTI (in vitro therapeutic index)” value of the first is lower: 5 for the first, 35 for the second.

Compared with CN1CCC(=C2c3ccccc3CC(=O)c3sccc32)CC1 [Ketotifen], CCCCCCCCCCCCCCCCOP(=O)([O-])OCC[N+](C)(C)C [Miltefosine] is higher in “IVTI (in vitro therapeutic index)” value: 24 for the first, 43 for the second.

With c1ccc2c(c1)Sc1ccccc1N2CC1CN2CCC1CC2 (stereo not shown) [Mequitazine] the “IVTI (in vitro therapeutic index)” value was 11–36 and 11.
